{"source": "patent US8975078B2", "about": "“Method for expressing a mouse olfactory receptor Olfr15 on a cell membrane” (Panasonic Corporation, priority 2011, dated 2015)", "test_system": "mouse olfactory receptor Olfr15", "assay": "Expression rate of mouse olfactory receptor Olfr15 on the cell membrane of transfected HEK293T cells (immunofluorescence)", "type": "cell-based", "conditions": "Comparative Example 3: phenylarsine oxide 1.7 μg/ml instead of chlorpromazine, otherwise as Example 1", "data": [{"molecule": "O=[As]c1ccccc1", "note": "(stereo not shown)", "values": [{"measurement": "Expression rate on the cell membrane (%)", "result": 8.9, "unit": "%"}]}]}
